Results of single-concentration screens

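Phenotypic screen: M. tuberculosis growth, glucose 7H9 medium, 3 days; the read-out is not stated. Concentration: 500 µM. The record gives no direction; compounds that gave an IC50 in retests scored well above the rest, so higher reads as more growth inhibition. About 18,000 compounds were tested under these conditions; 7.9% (about 1,400) showed 50% or more at least once.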

The filed quantity is “Percent Effect” (%).
The controls that fix the scale are not given in the record; negative values are as filed.
The entries come from a sample that favours strong results.

| # | SMILES | effect |
|---|---|---|
| 1 | `CC(C)C(=O)Nc1ccc(CN2CCN(C)CC2)cc1` | 15.28 |
| 2 | `CC1(C)CN(C(=O)c2ncncc2Cl)CC[S+]1[O-]` (stereo unspecified) | -11.07 |
| 3 | `CN1CCC(C(=O)NCCc2cccc(Cl)c2)CC1=O` (stereo unspecified) | 23.44 |
| 4 | `CCC1c2ccsc2CCN1C(C)=O` (stereo unspecified) | 45.86 |
| 5 | `COc1cc(CCC(=O)Nc2cc[nH]n2)cc(OC)c1` | 29.09 |
| 6 | `CN(C)C(=O)COC(=O)c1ccc(Cl)cc1O` | 2.625 |
| 7 | `CN(C)S(=O)(=O)c1ccc(CN2CCC(C(N)=O)C2)o1` (stereo unspecified) | 7.427 |
| 8 | `CCc1n[nH]c(SCC(=O)Nc2ccc(Br)cn2)n1` | 77.35 |
| 9 | `COc1cccc(C(F)(F)CN)n1` | -3.782 |
| 10 | `CC(C)(CC(N)=O)NCc1nc(-c2ccccc2)no1` | 28.39 |
| 11 | `CCC(CC)NC(=O)Nc1ccccc1CC(=O)NC` | 0.751 |
| 12 | `CCS(=O)(=O)NCCSc1nc2cc(F)c(F)cc2[nH]1` | 69.25 |
| 13 | `COCCCN(CCO)c1nccn2nc(C)cc12` | 39.03 |
| 14 | `COc1ccnc2c1CCCC2N` (stereo unspecified) | 26.51 |
| 15 | `Cc1cnn(CCNCc2cccc(C(N)=O)c2)c1` | 25.67 |
| 16 | `CCC[C@H]1CN(C(=O)CCn2cnnn2)C[C@@H]1N` | 16.02 |
| 17 | `CC(C(=O)N(C)c1ccccc1)N1CCC(O)CC1` (stereo unspecified) | 9.57 |
| 18 | `CC(O)CN1CCN(C(=O)C2CCCC2)CC1` (stereo unspecified) | -6.689 |
| 19 | `NCC(O)CN1CCc2ccccc2C1` (stereo unspecified) | 28.61 |
| 20 | `CCOc1cc(C(=O)NC2=NCCS2)ccc1OC` | 8.904 |
| 21 | `Cc1ccc2c(c1)nc(CCN)n2C` | 42.38 |
| 22 | `COc1ncccc1C(=O)NCCc1cncn1C` | 8.792 |
| 23 | `CS(=O)(=O)NC1CNC1` | -13.73 |
| 24 | `CCCc1ccc(CN2CCCN(C(C)=O)CC2)o1` | 23.44 |
| 25 | `COc1cccc(CCN)n1` | 74.52 |
| 26 | `NC(=O)C1CCN(CCOc2ccc(Br)cc2)C1` (stereo unspecified) | 58.52 |
| 27 | `CC(C)n1cc(C(=O)N2CC(c3ccccn3)C2)cn1` | 40.25 |
| 28 | `CN(CCNc1ccc2cc[nH]c2n1)S(C)(=O)=O` | -11.09 |
| 29 | `COc1ccc(C2CCCN2CC(=O)NC(N)=O)cc1` (stereo unspecified) | 24.22 |
| 30 | `COc1ccc(CN2C[C@@H](O)[C@@H](O)C2)c(Br)c1OC` | 29.42 |
| 31 | `COCC1(CNC(=O)NCCC2(C)OCCO2)CCC1` | 10.82 |
| 32 | `O=C(Nc1cc[nH]n1)c1csc(I)c1` | 79.53 |
| 33 | `NCCNS(=O)(=O)c1ccc(-c2ccccc2)cc1` | 82.09 |
| 34 | `CC(C)NC(=O)NC(C)c1ccccc1` (stereo unspecified) | -4.065 |
| 35 | `CCNC(=O)N1CCN(Cc2ccc(OC)nc2)CC1` | 5.386 |
| 36 | `Cn1cnc(S(=O)(=O)NCC(N)c2ccccc2)c1Cl` (stereo unspecified) | 35.88 |
| 37 | `O=C(c1cc(C2CC2)on1)N1CCC2(CCNCC2)C1` | 23.53 |
| 38 | `CCCNC(=O)c1n[nH]c2c1CC(C)CC2` (stereo unspecified) | -2.514 |
| 39 | `COc1ccc(NC(=O)NC2CCS(=O)(=O)C2)cn1` (stereo unspecified) | -44.06 |
| 40 | `CC[C@@H](O)CN1CCN(c2cc(OC)ccn2)CC1` | 23 |
| 41 | `Cc1cc(C(=O)N2C[C@H]3CC[C@@H](C2)[C@H]3O)c(C)o1` | 9.777 |
| 42 | `NCc1cccc(-c2nc(-c3ccncc3)no2)c1` | 50.09 |
| 43 | `O=C(c1ccc(-n2ccnc2)cc1)N1CCOCC1` | 34.22 |
| 44 | `O=C(NCCOc1ncccc1Cl)c1ccsc1` | 59.23 |
| 45 | `O=C(NCc1cccs1)c1cnsn1` | 70.42 |
| 46 | `CSCCC(O)C(=O)NCCc1cnccn1` (stereo unspecified) | 4.262 |
| 47 | `O=C(NCCn1cccn1)c1cc2sccc2[nH]1` | 14.68 |
| 48 | `CCC=C(C)C(=O)NCC(C)N1CCN(CC)CC1` (stereo unspecified) | 37.19 |
| 49 | `N#Cc1cc(F)c(S(=O)(=O)NCCN)c(F)c1` | 11.67 |
| 50 | `O=C(C1CCC1)N1CCN(S(=O)(=O)c2cccs2)CC1` | 18.91 |
| 51 | `CC(N)c1noc(-c2ccc(Cl)cc2)n1` (stereo unspecified) | 75.25 |
| 52 | `CN(CC(=O)Nc1sccc1C(N)=O)Cc1ccco1` | 48.12 |
| 53 | `O=C(c1ccoc1)N1CCCCC1Cn1cccn1` (stereo unspecified) | 10.77 |
| 54 | `COc1ccc(NS(=O)(=O)N(C)C)c(Br)c1` | 52.73 |
| 55 | `CN(CCc1ccccc1)CCS(=O)(=O)CCC(N)=O` | 86.91 |
| 56 | `Cc1c(C(=O)NCC2CC2)cnn1C` | 44.6 |
| 57 | `CCc1ccc(CN(C)C(=O)c2cccc(N)n2)nc1` | 23.66 |
| 58 | `COC(=O)c1[nH]cc(-c2ccccc2)c1N` | 58.36 |
| 59 | `NCCC1CSc2ccccc2O1` (stereo unspecified) | 61.26 |
| 60 | `NC(=O)c1cc(N)cs1` | -34.45 |
| 61 | `CCCn1ncnc1C(C)NC(=O)c1cnccn1` (stereo unspecified) | 11.72 |
| 62 | `CCOc1cc(C)ccc1CN` | -1.524 |
| 63 | `O=S(=O)(Cc1ccccc1C(F)(F)F)CC(O)CO` (stereo unspecified) | 1.153 |
| 64 | `CCC(O)CN1CCN(c2ncccc2Br)CC1` (stereo unspecified) | 53.57 |
| 65 | `COc1cccc(OCCNC(N)=O)c1` | -4.913 |
| 66 | `Cc1c(C(=O)N2CCCC2)cnn1-c1ccc(F)cc1` | -9.698 |
| 67 | `O=C1CN(C(=O)CNc2c(F)cccc2Cl)CCN1` | 3.69 |
| 68 | `c1cnc2c(c1)OCCN2` | -4.015 |
| 69 | `CN(C)S(=O)(=O)c1ccc(CS(=O)(=O)C2CCCC2)o1` | 0.1206 |
| 70 | `Cc1nn(C)c(C)c1CC(=O)N1CCSCC1` | 13.3 |
| 71 | `COCC1(C(=O)N2CCC[C@@H]2C(N)=O)CCC1` | 9.494 |
| 72 | `CN(Cc1cc(F)cc2cccnc12)S(C)(=O)=O` | 11.97 |
| 73 | `CNCc1nncn1-c1ccccc1Cl` | 10.72 |
| 74 | `O=C(COC(=O)CCC(=O)c1cccs1)NC1CC1` | 0.7476 |
| 75 | `O=C(CCc1ccc(Br)cc1F)NC1CCS(=O)(=O)C1` (stereo unspecified) | -3.462 |
| 76 | `O=C(c1cc(C2CC2)on1)N1CC(O)(C2CC2)C1` | 69.13 |
| 77 | `Cc1ccc(OCC(C)N)cc1` (stereo unspecified) | -6.401 |
| 78 | `NCCS(=O)(=O)N1CCCc2ccccc21` | 27.64 |
| 79 | `CN1CCN(C(=O)CCSc2ccccc2)CC1` | 14.02 |
| 80 | `CC(OC(=O)c1nn(C)c(=O)c2ccccc12)C(N)=O` (stereo unspecified) | -21.53 |
| 81 | `N#Cc1ccccc1CN1CCC(CO)CC1` | 27.21 |
| 82 | `CN1C(=O)C(N)Cc2ccccc21` (stereo unspecified) | -2.712 |
| 83 | `COCCSc1ccc(C(C)NS(=O)(=O)N(C)C)cc1` (stereo unspecified) | 26.13 |
| 84 | `CN1N=C(C(=O)N2CCCCCC2)CCC1=O` | 14.68 |
| 85 | `CCC(CNS(=O)(=O)N(C)CC)c1ccccc1` (stereo unspecified) | 75.11 |
| 86 | `CCOc1ccc2cc(C(=O)N3CCSCC3)[nH]c2c1` | 3.581 |
| 87 | `CNC(C)c1ccc(S(C)(=O)=O)cc1` (stereo unspecified) | 5.777 |
| 88 | `N#CCCNCC1CCOC1` (stereo unspecified) | 5.744 |
| 89 | `CCN(CC1CCOC1)S(=O)(=O)c1cnn(C)c1` (stereo unspecified) | 4.672 |
| 90 | `COc1ncc(C(=O)NCc2ccc(F)cc2)cn1` | 26.94 |
| 91 | `CNC(=O)C1CN(C(=O)c2ccc(Cl)c(C)c2)CCO1` (stereo unspecified) | 10.86 |
| 92 | `CN(CCc1cnn(C)c1)C(=O)c1c[nH]c(=O)[nH]1` | 6.215 |
| 93 | `CC(C)(C)OC(=O)N1CCOCC1C#N` (stereo unspecified) | 4.335 |
| 94 | `C[C@@H]1CN(C(=O)c2cccc3cc[nH]c23)CCN1` | 31.61 |

Measurements from “University of Dundee, Small-Polar-MMV Screening Library” (2021), ChEMBL document CHEMBL3988442.